The source of these data is ChEMBL document CHEMBL1255439 (2010).

The subject of the experiment is Burkholderia pseudomallei. In words: Antibacterial activity against Burkholderia pseudomallei 1026b infected in mouse AMJ.2 cells assessed as intracellular bacterial load at 10 ug/ml after 24 hrs by serial dilution plating technique in presence of IFN-gamma-harboring cationic liposome-DNA complex (reference value: 1.9 X 10^6 CFU).

Turning to `CC(C)(O/N=C(\C(=O)N[C@@H]1C(=O)N2C(C(=O)[O-])=C(C[n+]3ccccc3)CS[C@H]12)c1csc(N)n1)C(=O)O`, the log10cfu was found to be 20000.
